System: Human immunodeficiency virus 1
Assay: Antiviral activity against drug-resistant HIV-1 harboring protease L10F/L33F/M46I/I47V/I50V/F53L/L63P/A71V/L76S/V82I/I85V/L89I mutant infected in human TZM-bl cells using virus particles harvested from 24 hrs drug-treated human CEM cells infected with virus assessed as reduction in viral infection measured after 48 hrs in TZM-bl cells by Firefly luciferase based assay
Assay type: functional, organism-based
Settings: Human immunodeficiency virus 1, TZM-bl

Row | Compound | EC50
1 | CCOP(=O)(COc1ccc(C[C@H](NC(=O)O[C@H]2CO[C@H]3OCC[C@H]32)[C@H](O)CN(CC(CC)CC)S(=O)(=O)c2ccc3c(c2)OCO3)cc1)OCC | 1.17 µM
2 | CCOP(=O)(COc1ccc(C[C@H](NC(=O)O[C@H]2CO[C@H]3OCC[C@H]32)[C@H](O)CN(CC(CC)CC)S(=O)(=O)c2ccc(OC)cc2)cc1)OCC | 5.33 µM

Source: ChEMBL document CHEMBL5620363, “HIV-1 protease inhibitors with a P1 phosphonate modification maintain potency against drug-resistant variants by increased interactions with flap residues” (Eur J Med Chem, 2023)
